Patent publication US6451312

Assays:
human endoglin (human) = human endoglin (human) (UniProt P17813); experiment: cell-based or functional assay
ICAM-1 (human) = ICAM-1 (human) (UniProt P05362); experiment: cell-based or functional assay

Substance: TEC-11-dgA immunotoxin (from UniProt P02879 36-302)
- IC50 (nm), protein synthesis inhibition, confluent HUVEC (extrapolated) (human endoglin (human)): 180 nM
- IC50 (nm), protein synthesis inhibition, quiescent HUVEC (extrapolated) (human endoglin (human)): 230 nM
- IC50 (nm), protein synthesis inhibition, subconfluent HUVEC (human endoglin (human)): 0.075 nM
- IC50 ratio C/S (human endoglin (human)): 2400
- IC50 ratio Q/S (human endoglin (human)): 3070
- inhibition of protein synthesis in confluent HUVEC cultures at 10-8 M (human endoglin (human)): 20%
- inhibition of protein synthesis in quiescent HUVEC cultures at 10-8 M (human endoglin (human)): 10%
- inhibition of protein synthesis in subconfluent HUVEC cultures at 10^-10 M (human endoglin (human)): > 60%

Substance: UV-3-dgA immunotoxin (from UniProt P02879 36-302)
- IC50 (nm), protein synthesis inhibition, confluent HUVEC (ICAM-1 (human)): 80 nM
- IC50 (nm), protein synthesis inhibition, subconfluent HUVEC (ICAM-1 (human)): 9 nM
- IC50 ratio C/S (ICAM-1 (human)): 8.9
- IC50 ratio Q/S (ICAM-1 (human)): 4.1
